# According to PMC9435674, “Delineating the activity of the potent nicotinic acetylcholine receptor agonists (+)-anatoxin-a and (−)-hosieine-A” (2022):
# Protein sequences, listed by entry. Tags and fused reporters are not part of them. Residues count along the entry.
# UniProt Q8WSF8, 20-236 A155V/A60V limits assumed: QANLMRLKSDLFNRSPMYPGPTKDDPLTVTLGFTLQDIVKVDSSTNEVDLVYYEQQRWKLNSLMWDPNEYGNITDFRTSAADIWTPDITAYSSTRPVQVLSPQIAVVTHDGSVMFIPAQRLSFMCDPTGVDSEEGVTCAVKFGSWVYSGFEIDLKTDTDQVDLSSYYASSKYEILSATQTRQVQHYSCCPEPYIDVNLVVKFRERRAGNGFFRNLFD
# Experiments:
# [1] = ref Koskinen & Rapoport, 1985; cited from earlier work
# AcAChBP [2] = molecular target: T1, AcAChBP (Aplysia californica, UniProt Q8WSF8, A155V/A60V); test: Equilibrium tryptophan fluorescence-quenching assay; conditions: read-out: K d2 (dissociation constant from fluorescence measurements), emission 337 nm, room temperature, n = 3, standard error
# AcAChBP [3] = molecular target: T1, AcAChBP; test: Isothermal titration calorimetry (ITC) of ligand binding to AcAChBP; conditions: for Kd: read-out: K d1 (dissociation constant from ITC), 25°C, n = 3, standard error
# AcAChBP [4] = molecular target: T1, AcAChBP; conditions: ITC; ref Dawson et al., 2019; cited from earlier work
SMILES,pK a [1],Kd (AcAChBP [2]) [nM],Kd (AcAChBP [3]) [nM],entropic contribution to binding (−TΔS) (AcAChBP [4]) [kcal/mol],"N (sites), molar ratio (AcAChBP [3]; 25°C, n = 3, standard error)","ΔG (AcAChBP [3]; 25°C, n = 3, standard error) [kcal/mol]","ΔH (AcAChBP [3]; 25°C, n = 3, standard error) [kcal/mol]","−TΔS (AcAChBP [3]; 25°C, n = 3, standard error) [kcal/mol]"
CC(=O)C1=CCCC2CCC1N2 (racemic),9.4,150,300,–,–,–,–,–
O=C1C[C@@H]2OCC=C3CN4CC[C@]56c7ccccc7N1[C@H]5[C@H]2[C@H]3C[C@H]46,–,–,–,-1.9 ± 0.5,–,–,–,–
"CC(=O)C1=CCCC2CCC1N2 (single isomer, unassigned)",–,150,300,–,0.5 ± 0.02,-8.9 ± 0.1,-12.5 ± 0.2,3.6 ± 0.2
